Reference: article PMC4586043, “Antibodies to a conformational epitope on gp41 neutralize HIV-1 by destabilizing the Env spike” (Nature Communications, 2015)

B1: 3BC315 Fab (Fab, V domains shown)
VH: QVQLVQSGAEMKDPGASVKVSCRASGYKFTDYYMHWVRQAPGQGLEWVGWVNTNGGFTKYGAKFQGRVTVTRDTSTNTVFLELSRLTFGDTAMYFCARPMRPVSHGIDYSGLFVFQFWGRGTMVTVSS
VL: QSALTQPASVSASPGQSITISCSGTRSDVGGYDFVSWYQQHPGKVPKLIIYEVTKRPSGIPQRFSGSKSGNTASLTISGLQADDEADYYCCSYANYDKLILGGGTKLTVL
B2: 3BC315 IgG (antibody, V domains shown)
VH: B1 VH
VL: B1 VL

Assays:
[1] = molecular target: T1, His-tagged BG505 SOSIP.664 trimer produced in 293S cells (HIV-1 isolate BG505 (subtype A), stabilised); experiment: SPR; Biacore 3000, 25 °C, HBS-EP; His-tagged trimer captured by anti-histidine antibody on CM5 to 500 RU; 3BC315 IgG or Fab titrated down in twofold steps from 1 μM; IgG fitted with a bivalent, Fab with a Langmuir model; conditions: both partners purified
T1 construct: gp120 of HIV-1 BG505 Env as in the SOSIP.664 gp140 design; copies: 3 + 3

[2] = molecular target: T2, His-tagged BG505 SOSIP.664 trimer produced in 293T cells (HIV-1 isolate BG505 (subtype A), stabilised); experiment: as above; conditions: both partners purified
T2 construct: source: HEK293T; not shown: His8, C-terminal, kept; copies: 3 + 3

[3] = molecular target: T3, His-tagged BG505 SOSIP.664 trimer produced in 293F cells (HIV-1 isolate BG505 (subtype A), stabilised); experiment: as above; conditions: both partners purified
T3 construct: gp120 of HIV-1 BG505 Env as in the SOSIP.664 gp140 design; copies: 3 + 3

BG505 SOSIP.SEKS = molecular target: T4, BG505 SOSIP.SEKS (HIV-1 isolate BG505 (subtype A), UniProt Q2N0S6, stabilised); experiment: SPR; D7324-tagged BG505 Env forms captured by D7324 antibody on CM5 (500 RU; gp120 425 RU); 3BC315 injected at 500 nM; 25 °C, HBS-EP
T4 construct: uncleaved gp140 of HIV-1 BG505 Env with SOS, IP and the SEKS cleavage-site change; source: HEK293T

BG505 WT.SEKS = molecular target: T5, BG505 WT.SEKS (HIV-1 isolate BG505 (clade A), UniProt Q2N0S6, stabilised); experiment: as above
T5 construct: uncleaved gp140 of HIV-1 BG505 Env with the SEKS cleavage-site change, without SOS and IP; source: HEK293T

BG505 IP.SEKS = molecular target: T6, BG505 IP.SEKS (HIV-1 isolate BG505 (clade A), UniProt Q2N0S6, stabilised); experiment: as above
T6 construct: uncleaved gp140 of HIV-1 BG505 Env with IP and the SEKS cleavage-site change, without SOS; source: HEK293T

BG505 SOS.SEKS = molecular target: T7, BG505 SOS.SEKS (HIV-1 isolate BG505 (clade A), UniProt Q2N0S6, stabilised); experiment: as above
T7 construct: uncleaved gp140 of HIV-1 BG505 Env with SOS and the SEKS cleavage-site change, without IP; source: HEK293T

Binder | Kd [1] [nM] | stoichiometry N [1] | Kd [2] [nM] | stoichiometry N [2] | Kd [3] [nM] | stoichiometry N [3] | binding result (BG505 SOSIP.SEKS) | binding result (BG505 WT.SEKS) | binding result (BG505 IP.SEKS) | binding result (BG505 SOS.SEKS)
B1 | 4.7 | 1.5 | < 10 | 1.1 | < 10 | 1.3 | – | – | – | –
B2 | – | – | – | – | – | – | binds | binds | binds | binds
